Experimental data reported in patent US20040076637A1, “HIV-derived HR1 peptides modified to form stable trimers, and their use in therapy to inhibit transmission of human immunodeficiency virus” (priority 2002, published 2004).

Columns and labels:
[1] = Three-dimensional structure by X-ray crystallography; format: physicochemical
Description: In the example of the synthetic peptide having the amino acid sequence of SEQ ID NO:35, generally speaking, the majority of amino acid substitutions in the “a” position and “d” position were either leucine for isoleucine, or isoleucine for leucine, or a less bulky amino acid (e.g., valine) for either isoleucine or leucine. In comparing Table 1 with Table 2, and the biochemical and antiviral properties of the synthetic peptide having the amino acid sequence of SEQ ID NO:32 with the synthetic peptide having the amino acid sequence of SEQ ID NO:35, it was an unexpected result that by making these changes in the “a” position of at least one heptad of the plurality of heptads, and in the “d” position of at least one heptad of the plurality of heptads that improved is stability of the peptide as measured by a higher Tm (e.g., despite the reduction in number of leucine zipper-like motifs). The three-dimensional structure of SEQ ID NO:35 was determined by X-ray crystallography using methods standard in the art.

[2] = tested on: HR2 peptide (SEQ ID NO:33) derived from the HR2 region of HIV-1 gp41; assay: HR2 peptide binding, fluorescence polarization assay; conditions: ability to complex with HR2 peptide denoted as yes
Description: (§1) These include a protein chip assay (using Biacore analysis) in which surface plasmon resonance is used to detect the binding, and kinetics thereof, between a synthetic peptide and an HR2 peptide; and a fluorescence polarization assay. In the fluorescence polarization assay, a detectable moiety comprising a fluorescent dye (e.g., rhodamine and/or fluorescein) was used to label HR2 peptide, and the assay was then allowed to proceed under sufficient conditions and for a sufficient period of time for labeled peptide to bind to HR1 peptide, or synthetic peptide (or trimer formed therefrom).

[3] = Thermal stability (Tm) by CD signal at 222 nm; format: physicochemical; conditions: at 10 μM
Experimental: Helicity was assessed by circular dichroism (“CD”) as follows. Briefly, CD spectra were obtained using a spectrometer equipped with a thermoelectric temperature controller. The spectra was obtained at 25° C. with 0.5 nanometer (nm) steps from 200 to 260 nm, with a 1.5 nm bandwith, and a typical averaging time of 4 seconds/step. After the cell/buffer blank was subtracted, spectra were smoothed using a third-order least-squares polynomial fit with a conservative window size to give random residuals. Raw ellipticity values were converted to mean residue ellipticity using standard methods, and plotted was the wavelength (from 200 to 260 nm) versus [θ]×10^−3 (degrees cm^2/dmol). Percent helicity values were then calculated using standard methods. Assessment of thermal stability was performed by monitoring the change in CD signal at 222 nm as temperature was raised in 2° C. steps, with 1 minute equilibration times. The thermal stability for each sample (e.g., synthetic peptide) was represented by the transition temperature (Tm) determined by the derivative method.

[4] = tested on: HR2 peptide derived from the HR2 region of HIV-1 gp41; assay: HR2 peptide binding kinetics, protein chip assay (Biacore, surface plasmon resonance)
Description: as §1

[5] = Oligomerization state by sedimentation equilibrium (analytical ultracentrifuge); format: physicochemical; conditions: in solution, 4° C.
Experimental: Oligomerization state was assessed by using methods standard in the art for performing sedimentation equilibrium experiments and for analysis of the resultant data. In that regard, sedimentation equilibrium experiments were performed over a concentration range of synthetic peptide (1 μM to […]) as follows. Briefly, six-channel cells (12 mm optical path length) were used with an An-60 Ti rotor operated at 13,500 rpm, 18,000 rpm, 22,000 rpm, and 35,000 rpm) in an analytical ultracentrifuge at 4° C. The cell radii were scanned using 0.001 cm steps with 10 averages/scan at 3 different wavelengths (235 nm, 240 nm, 280 nm). Data obtained with solutions containing synthetic peptide was analyzed using a single species model to determine a weight-averaged molecular weight (MW). Diagnostic plots of MW/MW0 vs. rpm/rpm0 and MW vs. radial concentration were used to test for sample homogeneity. When systemic residuals or a MW higher than monomer molecular weight indicated the presence of self-association, associative models were investigated. The suitability of a model (goodness of fit) was judged by the trends observed in the residuals.

Compound	Oligomerization as determined by crystallography [1]	HR2 peptide binding [2]	Stability Tm [3]	HR2 peptide binding K off [4]	HR2 peptide binding K on [4]	Oligomerization [5]
CC[C@H](C)[C@H](NC(=O)CNC(=O)[C@H](Cc1c[nH]c2ccccc12)NC(=O)[C@@H](NC(=O)[C@@H](NC(=O)[C@H](C)NC(=O)[C@H](CCC(N)=O)NC(=O)[C@H](CC(C)C)NC(=O)[C@H](C)NC(=O)[C@H](Cc1c[nH]cn1)NC(=O)[C@H](CCC(N)=O)NC(=O)[C@@H](NC(=O)[C@H](C)NC(=O)[C@H](CCC(=O)O)NC(=O)[C@@H](NC(=O)[C@H](C)NC(=O)[C@H](CCCNC(=N)N)NC(=O)[C@H](CC(C)C)NC(=O)[C@H](CC(C)C)NC(=O)[C@H](CC(N)=O)NC(=O)[C@H](CC(N)=O)NC(=O)[C@H](CCC(N)=O)NC(=O)[C@H](CCC(N)=O)NC(=O)[C@H](CCC(N)=O)NC(=O)[C@@H](NC(=O)[C@@H](NC(=O)CNC(=O)[C@H](CO)NC(=O)[C@H](CC(C)C)NC(=O)[C@H](CC(C)C)NC(=O)[C@H](CCC(N)=O)NC(=O)[C@H](CCCNC(=N)N)NC(=O)[C@@H](NC(=O)[C@H](CCC(N)=O)NC(C)=O)[C@@H](C)CC)[C@@H](C)CC)C(C)C)[C@@H](C)CC)[C@@H](C)CC)[C@@H](C)CC)C(C)C)C(=O)N[C@@H](CCCCN)C(=O)N[C@@H](CCC(N)=O)C(=O)N[C@@H](CC(C)C)C(=O)N[C@@H](CCC(N)=O)C(=O)N[C@@H](C)C(=O)N[C@@H](CCCNC(=N)N)C(=O)N[C@H](C(=O)N[C@@H](CC(C)C)C(=O)N[C@@H](C)C(=O)N[C@H](C(=O)N[C@@H](CCC(=O)O)C(=O)N[C@@H](CCCNC(=N)N)C(=O)N[C@@H](Cc1ccc(O)cc1)C(=O)N[C@@H](CC(C)C)C(=O)N[C@@H](CCCCN)C(N)=O)C(C)C)[C@@H](C)CC [SEQ ID NO: 36]	Trimer*	retain HIV gp41 HR2 binding activity	Tm > 97 °C	3.3 × 10^−3	4.3 × 10^5	–
CC[C@H](C)[C@H](NC(=O)[C@H](Cc1ccc(O)cc1)NC(=O)[C@H](CCCNC(=N)N)NC(=O)[C@H](CCC(=O)O)NC(=O)[C@H](CC(C)C)NC(=O)[C@H](C)NC(=O)[C@H](CC(C)C)NC(=O)[C@@H](NC(=O)[C@H](CCCNC(=N)N)NC(=O)[C@H](C)NC(=O)[C@H](CCC(N)=O)NC(=O)[C@H](CC(C)C)NC(=O)[C@H](CCC(N)=O)NC(=O)[C@H](CCCCN)NC(=O)[C@@H](NC(=O)CNC(=O)[C@H](Cc1c[nH]c2ccccc12)NC(=O)[C@@H](NC(=O)[C@H](CC(C)C)NC(=O)[C@H](C)NC(=O)[C@H](CCC(N)=O)NC(=O)[C@@H](NC(=O)[C@H](C)NC(=O)[C@H](Cc1c[nH]cn1)NC(=O)[C@H](CCC(N)=O)NC(=O)[C@@H](NC(=O)[C@H](C)NC(=O)[C@H](CCC(=O)O)NC(=O)[C@H](CC(C)C)NC(=O)[C@H](C)NC(=O)[C@H](CCCNC(=N)N)NC(=O)[C@H](CC(C)C)NC(=O)[C@@H](NC(=O)[C@H](CC(N)=O)NC(=O)[C@H](CC(N)=O)NC(=O)[C@H](CCC(N)=O)NC(=O)[C@H](CCC(N)=O)NC(=O)[C@H](CCC(N)=O)NC(=O)[C@@H](NC(=O)[C@H](CC(C)C)NC(=O)CNC(=O)[C@H](CO)NC(=O)[C@@H](NC(=O)[C@H](CC(C)C)NC(=O)[C@H](CCC(N)=O)NC(=O)[C@H](CCCNC(=N)N)NC(=O)[C@H](C)NC(=O)[C@H](CCC(N)=O)NC(C)=O)C(C)C)C(C)C)[C@@H](C)CC)[C@@H](C)O)C(C)C)C(C)C)C(C)C)C(C)C)C(=O)N[C@@H](CCCCN)C(N)=O [SEQ ID NO: 35]	self-assembles into trimers	–	–	–	–	–
CC[C@H](C)[C@H](NC(=O)CNC(=O)[C@H](Cc1c[nH]c2ccccc12)NC(=O)[C@@H](NC(=O)[C@@H](NC(=O)[C@H](C)NC(=O)[C@H](CCC(N)=O)NC(=O)[C@H](CC(C)C)NC(=O)[C@H](C)NC(=O)[C@H](Cc1c[nH]cn1)NC(=O)[C@H](CCC(N)=O)NC(=O)[C@H](CCC(N)=O)NC(=O)[C@H](C)NC(=O)[C@H](CCC(=O)O)NC(=O)[C@@H](NC(=O)[C@H](C)NC(=O)[C@H](CCCNC(=N)N)NC(=O)[C@H](CC(C)C)NC(=O)[C@H](CC(C)C)NC(=O)[C@H](CC(N)=O)NC(=O)[C@H](CC(N)=O)NC(=O)[C@H](CCC(N)=O)NC(=O)[C@H](CCC(N)=O)NC(=O)[C@H](CCC(N)=O)NC(=O)[C@@H](NC(=O)[C@@H](NC(=O)CNC(=O)[C@H](CO)NC(=O)[C@H](CC(C)C)NC(=O)[C@H](CC(C)C)NC(=O)[C@H](CCC(N)=O)NC(=O)[C@H](CCCNC(=N)N)NC(=O)[C@H](C)NC(=O)[C@H](CCC(N)=O)NC(C)=O)[C@@H](C)CC)C(C)C)[C@@H](C)CC)[C@@H](C)O)C(C)C)C(=O)N[C@@H](CCCCN)C(=O)N[C@@H](CCC(N)=O)C(=O)N[C@@H](CC(C)C)C(=O)N[C@@H](CCC(N)=O)C(=O)N[C@@H](C)C(=O)N[C@@H](CCCNC(=N)N)C(=O)N[C@H](C(=O)N[C@@H](CC(C)C)C(=O)N[C@@H](C)C(=O)N[C@H](C(=O)N[C@@H](CCC(=O)O)C(=O)N[C@@H](CCCNC(=N)N)C(=O)N[C@@H](Cc1ccc(O)cc1)C(=O)N[C@@H](CC(C)C)C(=O)N[C@@H](CCCCN)C(N)=O)C(C)C)[C@@H](C)CC [SEQ ID NO: 32]	–	retain the ability to complex with peptides derived from the HR2 region	–	1.9 × 10^−3/	6.1 × 10^5	trimeric
